A mixed list of measured activities; the numbers were collected in NIAID ChemDB.

All rows: whole-cell or culture tests; organism: Vesicular stomatitis virus

Inhibition is in % at the dose shown (toxicity tests: loss of growth or viability). ECn is the concentration giving n% inhibition of infection, replication or growth. Conditions beyond the fields shown may differ between rows. Blank or dashed fields: not listed here.

structure | cells | read by | read-out | tested at | value
Nc1nccc2c1ncn2[C@@H]1C[C@H](CO)[C@@H](O)[C@H]1O | PRK | cytopathic effect | EC50 |  | 0.2 µg/mL
O=c1c2cccnc2[se]n1N(c1ccccc1)c1ccccc1 |  |  | MIC |  | 500 µg/mL
Cn1cc(NC(=O)c2cc(NC(=O)CN=C(N)N)cn2C)c(C(=O)NCCC(=N)N)c1 | PRK | cytopathic effect | EC50 |  | ≥40 µg/mL
Nc1nccc2c1ncn2[C@@H]1C[C@H](CO)[C@@H](O)[C@H]1O | L929 | cytopathic effect | EC50 |  | 1 µg/mL
COC(=O)[C@H]1[C@@H]2C[C@@H](O[C@@H]3O[C@H](C)[C@@H](O)[C@H](N)[C@@H]3O)/C=C/C=C/C=C/C=C/C=C/C=C/C=C/[C@H](C)[C@@H](O)[C@H](C)[C@H](C)OC(=O)C[C@H](O)C[C@H](O)[C@@H](O)CC[C@H](O)C[C@H](O)C[C@](O)(C[C@@H]1O)O2 | T98G | plaque count | inhibition | 10 µg/mL | 0%
O=c1[nH][se]c2ncccc12 |  |  | MIC |  | >1000 µg/mL
CCc1cn([C@H]2C[C@H](O)[C@@H](CO)O2)c(=O)[nH]c1=O | E6SM | cytopathic effect | EC50 |  | >2000 µM
O=c1c2cccnc2[se]n1N(c1ccccc1)c1ccccn1 |  |  | MIC |  | 500 µg/mL
Cc1cn([C@H]2C[C@H](O)[C@@H](CO)O2)c(=O)[nH]c1=O | E6SM | cytopathic effect | EC50 |  | >2000 µM
Nc1nccc2c1ncn2[C@@H]1C=C(CO)[C@@H](O)[C@H]1O | PRK | cytopathic effect | EC50 |  | 0.07 µg/mL
O=c1[nH]c(=O)n([C@H]2C[C@H](O)[C@@H](CO)O2)cc1C1CCCCC1 | E6SM | cytopathic effect | EC50 |  | >1200 µM
O=c1[nH][se]c2ccccc12 |  |  | MIC |  | 600 µg/mL
Nc1nccc2c1ncn2[C@@H]1C[C@H](CO)[C@@H](O)[C@H]1O | HK | cytopathic effect | EC50 |  | 0.4 µg/mL
O=c1[nH]c(=O)n([C@H]2C[C@H](O)[C@@H](CO)S2)cc1C1CCC1 | E6SM | cytopathic effect | EC50 |  | >1500 µM

The last 2 rows once more:

structure,cells,read by,read-out,tested at,value
Nc1nccc2c1ncn2[C@@H]1C[C@H](CO)[C@@H](O)[C@H]1O,HK,cytopathic effect,EC50,,0.4 µg/mL
O=c1[nH]c(=O)n([C@H]2C[C@H](O)[C@@H](CO)S2)cc1C1CCC1,E6SM,cytopathic effect,EC50,,>1500 µM